# Tested on: human lung epithelial cancer cell line A549
# Conditions: LD50 A549 / IC50 Sgl1
# Experimental: The cells were maintained in Dulbecco’s modified eagle medium containing 10% fetal bovine serum and 1% penicillin–streptomycin. At passage 11, 10^5 cells were transferred into each well of 96-well plates and cultured for 18–24 h for the cells to adhere to the well surface. After, the medium was removed and a fresh medium containing the selected compounds at a concentration range of 1–512 μM were added to the wells. Controls with equivalent serial concentrations of DMSO were also evaluated and compared with a control without DMSO. The plate was incubated at 37 °C with 5% CO2. After 24 h, the supernatant was removed and 50 μL of 5 mg/mL 3-(4,5-dimethylthiazol-2-yl)-2,5-diphenyltetrazoliumbromide (MTT) solution in phosphate-buffered saline (PBS) was added to each well. The plates were incubated for an additional 4 h and the formazan crystals formed inside the cell was dissolved by adding 50 μL DMSO.
row,SMILES,selectivity index (SI = LD50/IC50)
1,Cc1ccsc1CN(CCN(C)C)Cc1ccc2nonc2c1 [Hit 10],603.6
2,CN1C[C@H](NS(=O)(=O)c2cc(Cl)ccc2Cl)C[C@H]1CO [Hit 13],108.6
3,Cc1[nH]c2ccc(CNc3nccc(N)n3)cc2c1C [Hit 6],90.65
4,CN1C[C@H](Nc2nc(C(C)(C)C)nc3c2cnn3C)C[C@H]1CO [Hit 14],357

# Source: paper PMC8497620, “Structure and inhibition of Cryptococcus neoformans sterylglucosidase to develop antifungal agents” (Nature Communications, 2021)
